# Laboratory results published in article PMC5864910, “Mutacin 1140 Lantibiotic Variants Are Efficacious Against Clostridium difficile Infection” (Frontiers in Microbiology, 2018).
Compound,Minimum Inhibitory Concentration S. aureus ATCC 19636 (Staphylococcus aureus) [mg/mL],Minimum Inhibitory Concentration S. aureus ATCC 29213 (Staphylococcus aureus) [mg/mL],Minimum Inhibitory Concentration S. aureus ATCC 33591 (Staphylococcus aureus) [mg/mL],Minimum Inhibitory Concentration S. aureus ATCC 700699 (Staphylococcus aureus) [mg/mL],Minimum Inhibitory Concentration S. aureus BAA-1717 (Staphylococcus aureus) [mg/mL],Minimum Inhibitory Concentration VRE ATCC 51575 (E. faecalis) [mg/mL],Minimum Inhibitory Concentration C. difficile ATCC 9689 (Clostridium difficile) [mg/mL],Minimum Inhibitory Concentration C. difficile BAA-1805 (Clostridium difficile) [mg/mL],Minimum Inhibitory Concentration C. difficile BAA-1875 (Clostridium difficile) [mg/mL],Minimum Inhibitory Concentration VRE ATCC 700221 (E. faecium) [mg/mL],Minimum Inhibitory Concentration S. aureus Max (Staphylococcus aureus) [mg/mL],Minimum Inhibitory Concentration S. aureus Min (Staphylococcus aureus) [mg/mL],Minimum Inhibitory Concentration S. aureus Mode (Staphylococcus aureus) [mg/mL],Minimum Inhibitory Concentration S. aureus Range (Staphylococcus aureus) [mg/mL]
C=C1NC(=O)[C@H](C)NC(=O)[C@H](NC(=O)[C@H](CCCCN)NC(=O)[C@@H](N)Cc2ccccc2)CSC[C@@H](C(=O)N[C@H]2C(=O)N3CCC[C@H]3C(=O)NCC(=O)N[C@H](C(=O)N[C@@H](C)C(=O)N[C@@H](CCCNC(=N)N)C(=O)N/C(=C\C)C(=O)NCC(=O)N[C@@H]3CSC[C@@H]4NC(=O)[C@H](Cc5ccc(O)cc5)NC(=O)[C@@H](CS/C=C\NC4=O)NC(=O)[C@H](CC(N)=O)NC(=O)[C@H](Cc4ccccc4)NC3=O)CS[C@H]2C)NC(=O)[C@H](CC(C)C)NC1=O [W4A],16,32,1,16,8,64,32,0.06299,0.25,16,,,,
C=C1NC(=O)[C@H](Cc2c[nH]c3ccccc23)NC(=O)[C@H](NC(=O)[C@H](CCCCN)NC(=O)[C@@H](N)Cc2ccccc2)CSC[C@@H](C(=O)N[C@H]2C(=O)N3CCC[C@H]3C(=O)NCC(=O)N[C@H](C(=O)N[C@@H](C)C(=O)N[C@@H](CCCNC(=N)N)C(=O)N/C(=C\C)C(=O)NCC(=O)N[C@@H]3CSC[C@@H]4NC(=O)[C@H](Cc5ccc(O)cc5)NC(=O)[C@@H](CS/C=C\NC4=O)NC(=O)[C@H](CC(N)=O)NC(=O)[C@H](Cc4ccccc4)NC3=O)CS[C@H]2C)NC(=O)[C@H]([C@@H](C)O)NC1=O [L6T],8,32,2,16,8,32,16,0.125,0.125,8,,,,
C=C1NC(=O)[C@H](Cc2c[nH]c3ccccc23)NC(=O)[C@H](NC(=O)[C@H](CCCCN)NC(=O)[C@@H](N)Cc2ccccc2)CSC[C@@H](C(=O)N[C@H]2C(=O)N3CCC[C@H]3C(=O)NCC(=O)N[C@H](C(=O)N[C@@H](C)C(=O)N[C@@H](CC(C)C)C(=O)N/C(=C\C)C(=O)NCC(=O)N[C@@H]3CSC[C@@H]4NC(=O)[C@H](Cc5ccc(O)cc5)NC(=O)[C@@H](CS/C=C\NC4=O)NC(=O)[C@H](CC(N)=O)NC(=O)[C@H](Cc4ccccc4)NC3=O)CS[C@H]2C)NC(=O)[C@H](CC(C)C)NC1=O [R13L],2,4,2,8,4,16,4,,0.125,8,,,,
C=C1NC(=O)[C@H](C(C)C)NC(=O)[C@H](NC(=O)[C@H](CCCCN)NC(=O)[C@@H](N)Cc2ccccc2)CSC[C@@H](C(=O)N[C@H]2C(=O)N3CCC[C@H]3C(=O)NCC(=O)N[C@H](C(=O)N[C@@H](C)C(=O)N[C@@H](CCCNC(=N)N)C(=O)N/C(=C\C)C(=O)NCC(=O)N[C@@H]3CSC[C@@H]4NC(=O)[C@H](Cc5ccc(O)cc5)NC(=O)[C@@H](CS/C=C\NC4=O)NC(=O)[C@H](CC(N)=O)NC(=O)[C@H](Cc4ccccc4)NC3=O)CS[C@H]2C)NC(=O)[C@H](CC(C)C)NC1=O [W4V],8,16,2,16,8,32,16,0.06299,0.125,8,,,,
C=C1NC(=O)[C@H](Cc2c[nH]c3ccccc23)NC(=O)[C@H](NC(=O)[C@H](CCSC)NC(=O)[C@@H](N)Cc2ccccc2)CSC[C@@H](C(=O)N[C@H]2C(=O)N3CCC[C@H]3C(=O)NCC(=O)N[C@H](C(=O)N[C@@H](C)C(=O)N[C@@H](CCCNC(=N)N)C(=O)N/C(=C\C)C(=O)NCC(=O)N[C@@H]3CSC[C@@H]4NC(=O)[C@H](Cc5ccc(O)cc5)NC(=O)[C@@H](CS/C=C\NC4=O)NC(=O)[C@H](CC(N)=O)NC(=O)[C@H](Cc4ccccc4)NC3=O)CS[C@H]2C)NC(=O)[C@H](CC(C)C)NC1=O [K2M],,,,,,0.25,0.125,0.03099,0.03099,0.25,,,,
C=C1NC(=O)[C@H](Cc2c[nH]c3ccccc23)NC(=O)[C@H](NC(=O)[C@H](CCCCN)NC(=O)[C@@H](N)Cc2ccccc2)CSC[C@@H](C(=O)N[C@H]2C(=O)N3CCC[C@H]3C(=O)NCC(=O)N[C@H](C(=O)N[C@@H](C)C(=O)N[C@@H](CCCNC(=N)N)C(=O)N/C(=C\C)C(=O)NCC(=O)N[C@@H]3CSC[C@@H]4NC(=O)[C@H](Cc5ccc(O)cc5)NC(=O)[C@@H](CS/C=C\NC4=O)NC(=O)[C@H](CC(N)=O)NC(=O)[C@H](Cc4ccccc4)NC3=O)CS[C@H]2C)NC(=O)[C@H](C)NC1=O [L6A],8,16,1,8,4,32,8,0.06299,0.125,4,16,1,8,1 to 16
C=C1NC(=O)[C@H](Cc2c[nH]c3ccccc23)NC(=O)[C@H](NC(=O)[C@H](CCCCN)NC(=O)[C@@H](N)Cc2ccccc2)CSC[C@@H](C(=O)N[C@H]2C(=O)N3CCC[C@H]3C(=O)NCC(=O)N[C@H](C(=O)N[C@@H](C)C(=O)N[C@@H](C)C(=O)N/C(=C\C)C(=O)NCC(=O)N[C@@H]3CSC[C@@H]4NC(=O)[C@H](Cc5ccc(O)cc5)NC(=O)[C@@H](CS/C=C\NC4=O)NC(=O)[C@H](CC(N)=O)NC(=O)[C@H](Cc4ccccc4)NC3=O)CS[C@H]2C)NC(=O)[C@H](CC(C)C)NC1=O [R13A],1,8,1,4,2,16,4,,0.125,4,8,1,1,1 to 8
C=C1NC(=O)[C@H](Cc2c[nH]c3ccccc23)NC(=O)[C@H](NC(=O)[C@H](CCCCN)NC(=O)[C@@H](N)Cc2ccccc2)CSC[C@@H](C(=O)N[C@H]2C(=O)N3CCC[C@H]3C(=O)NCC(=O)N[C@H](C(=O)N[C@@H](C)C(=O)N[C@@H](CCCNC(=N)N)C(=O)N/C(=C\C)C(=O)NCC(=O)N[C@@H]3CSC[C@@H]4NC(=O)[C@H](Cc5ccc(O)cc5)NC(=O)[C@@H](CS/C=C\NC4=O)NC(=O)[C@H](CC(N)=O)NC(=O)[C@H](Cc4ccc(O)cc4)NC3=O)CS[C@H]2C)NC(=O)[C@H](CC(C)C)NC1=O [F17Y],1,2,1,2,2,8,2,,0.125,4,2,1,2,1 to 2
C=C1NC(=O)[C@H](Cc2c[nH]c3ccccc23)NC(=O)[C@H](NC(=O)[C@H](CCCCN)NC(=O)[C@@H](N)Cc2ccccc2)CSC[C@@H](C(=O)N[C@H]2C(=O)N[C@@H](Cc3c[nH]cn3)C(=O)NCC(=O)N[C@H](C(=O)N[C@@H](C)C(=O)N[C@@H](CCCNC(=N)N)C(=O)N/C(=C\C)C(=O)NCC(=O)N[C@@H]3CSC[C@@H]4NC(=O)[C@H](Cc5ccc(O)cc5)NC(=O)[C@@H](CS/C=C\NC4=O)NC(=O)[C@H](CC(N)=O)NC(=O)[C@H](Cc4ccccc4)NC3=O)CS[C@H]2C)NC(=O)[C@H](CC(C)C)NC1=O [P9H],4,8,4,8,8,32,32,0.25,1,4,,,,
